This is an account of results in patent US20090162366A1.

Some targets named below: CM17 (influenza A virus); CM14 (influenza A virus); M12 (influenza A virus); CM12 (influenza A virus); NM13 (influenza A virus); NM12 (influenza A virus); NM14 (influenza A virus); NM11 (influenza A virus); CM15 (influenza A virus); CM16 (influenza A virus); CM13 (influenza A virus).
Holding throughout (assay): ELISA on peptide, Ab 10 µg/ml
In general terms: An ELISA detects its analyte on a solid surface through an enzyme-linked reagent.

B1: N547 (antibody, V domains shown)
VH: EVQLVESGGGLVKPGGSLRLSCAASGFTFSNALMSWVRQAPGKGLEWVGRIKSKTNGGTTDYAAPVKGRFTISRDDSKNTLYLQMNSLKTEDTAVYYCTTHLRYFDWLSDYWGQGTLVTVSS
VL: QSVLTQPPSMSAAPGQKVTISCSGSSSNIGNNYISWYQQLPGTAPKVLIYDNNKRPSGIPDRFSGSKSGTSATLGITGLQTGDEADYYCGSWDSSLSAGVFGTGTKVTVLG
As for B1, the ELISA(OD450) in the assay with CM17 (influenza A virus) is 0.08 OD450; with CM14 (influenza A virus), 0.08 OD450; in the assay with M12 (influenza A virus), 0.07 OD450; in the assay with CM12 (influenza A virus), 0.07 OD450; with NM13 (influenza A virus), 0.06 OD450; with NM12 (influenza A virus), 0.16 OD450. Further, the ELISA(OD450) with NM14 (influenza A virus) amounted to 0.16 OD450; with NM11 (influenza A virus), 0.07 OD450; with CM15 (influenza A virus), 0.08 OD450; with CM16 (influenza A virus), 0.08 OD450; in the assay with CM13 (influenza A virus), 0.08 OD450.
